Source: PubChem BioAssay AID504761 (Drosophila RNAi Screening Center, 2011)

Purpose: 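Fly genes whose silencing reduces dengue virus type 2 infection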 (primary screen)
Cell system: D.Mel-2 cells from Drosophila
Knock-down reagent: long dsRNA against Drosophila genes
Treatment: infection with dengue virus type 2; dose and infection time not stated
Read-out: 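Per well on two replicate plates, imaging gave the percent of cells positive for viral envelope protein, ranked by infection, and a nuclear count of cells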
Direction: infection score: higher = more virus-infected cells; cell count: higher = more cells in the well
Call rule: 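Low infection ranks in the two replicates (chance level up to 0.065) followed by a retest with a 1.5-fold or larger significant decrease, p below 0.05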
Calls: active = confirmed: knock-down lowers infection; inactive = not picked or not confirmed
In all, the deposit lists about 22,000 reagents; shown is an unselected part of those with a known target gene and a result. Over the whole deposit, 116 (0.52%) are marked active. 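Calls depend on retest data that are not deposited; infection was ranked per plate without normalising between plates; the unit of the infection score is not given.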 Raw values vary from plate to plate and are shown uncorrected. A number with no mark means an inactive call. The numbers tell different reagents against one gene apart. Reagent sequences are not shown. The record does not give: the amount of reagent, the time to read-out.

The first 3 entries as a preview:
| gene knocked down | reagent | infection score, replicate 1 | infection score, replicate 2 | cell count, replicate 1 | cell count, replicate 2 |
| --- | --- | --- | --- | --- | --- |
| CG12325 (GeneID 36144) | 1 | 12.3 | 1.91 | 4894 | 5806 |
| CG32832 (GeneID 318237) | 1 | 2.88 | 0.69 | 6136 | 5773 |
| CarT (GeneID 35334) | 1 | 27.6 | 36.2 | 6675 | 6060 |

The listing, repeating the preview:
| gene knocked down | reagent | infection score, replicate 1 | infection score, replicate 2 | cell count, replicate 1 | cell count, replicate 2 |
| --- | --- | --- | --- | --- | --- |
| CG12325 (GeneID 36144) | 1 | 12.3 | 1.91 | 4894 | 5806 |
| CG32832 (GeneID 318237) | 1 | 2.88 | 0.69 | 6136 | 5773 |
| CarT (GeneID 35334) | 1 | 27.6 | 36.2 | 6675 | 6060 |
| CarT (GeneID 35334) | 2 | 4.71 | 15.1 | 6099 | 6598 |
| Nup358 (GeneID 43041) | 1 | 3.1 | 2.66 | 5830 | 6229 |
| Nup358 (GeneID 43041) | 2 | 13.8 | 20.5 | 1456 | 1468 |
| GLS (GeneID 36396) | 1 | 16.7 | 14.6 | 6468 | 6197 |
| GLS (GeneID 36396) | 2 | 1.34 | 1.76 | 6693 | 6833 |
| Ag5r2 (GeneID 44079) | 1 | 4.17 | 5.6 | 6469 | 6699 |
| CG3534 (GeneID 42047) | 1 | 14.9 | 5.1 | 5524 | 6769 |
| CG3534 (GeneID 42047) | 2 | 3.83 | 1.51 | 5763 | 6228 |
| CG7196 (retired record) (GeneID 34057) | 1 | 6.76 | 9.25 | 6023 | 5654 |
| CG7196 (retired record) (GeneID 34057) | 2 | 4.48 | 5.85 | 6315 | 6631 |
| CG15743 (GeneID 32279) | 1 | 4.46 | 13.8 | 5876 | 6281 |
| CG15743 (GeneID 32279) | 2 | 1.6 | 5.7 | 6323 | 6303 |
| PolH (GeneID 40438) | 1 | 4.74 | 26.9 | 6753 | 5131 |
| Spn42Dc (GeneID 35600) | 1 | 11.1 | 9.24 | 4295 | 1700 |
| pncr003:2L (retired record) (GeneID 3772689) | 1 | 5.68 | 10.2 | 4628 | 3087 |
| pncr003:2L (retired record) (GeneID 3772689) | 2 | 17.1 | 12.6 | 6264 | 5892 |
| mab-21 (GeneID 44127) | 1 | 3.32 | 3.6 | 5879 | 6140 |
| mab-21 (GeneID 44127) | 2 | 5.47 | 3.04 | 4549 | 6156 |
| CG15708 (GeneID 36805) | 1 | 5.65 | 9.26 | 1629 | 4192 |
| CG10738 (GeneID 39516) | 1 | 0.29 (active) | 0.34 | 6531 | 6755 |
| CG10738 (GeneID 39516) | 2 | 2.04 | 1.94 | 6339 | 5969 |
| CG18234 (GeneID 40024) | 1 | 6.55 | 16.5 | 6218 | 6050 |
| CG11788 (GeneID 37295) | 1 | 2.39 | 6.5 | 5863 | 6528 |
| Phb1 (GeneID 49168) | 1 | 20.2 | 29.9 | 4754 | 4299 |
| Phb1 (GeneID 49168) | 2 | 4.35 | 3.97 | 5696 | 5723 |
| Creld (GeneID 33166) | 1 | 14.6 | 20.1 | 6575 | 6255 |
| Creld (GeneID 33166) | 2 | – | 13.4 | 304 | 5371 |
| GstE8 (GeneID 37113) | 1 | 17 | 23.2 | 6385 | 5672 |
| scf (GeneID 38145) | 1 | 0.73 | 1.94 | 5862 | 5988 |
| CAH16 (GeneID 50101) | 1 | 6.03 | 2.11 | 3966 | 6696 |
| CAH16 (GeneID 50101) | 2 | 9.77 | 15.8 | 6738 | 6513 |
| CG5056 (GeneID 34406) | 1 | 17.9 | 12.5 | 6013 | 5642 |
| CG14968 (GeneID 38406) | 1 | 2.09 | 2.2 | 6270 | 6488 |
| CG14968 (GeneID 38406) | 2 | 22.6 | 20.3 | 5751 | 5498 |
| Ssb-c31a (GeneID 34120) | 1 | 0.9 | – | 667 | 546 |
| Ssb-c31a (GeneID 34120) | 2 | 5.31 | 22.7 | 6435 | 5480 |
| RhoGDI (GeneID 40179) | 1 | 6.99 | 5.33 | 3762 | 6719 |
| CG30391 (GeneID 37423) | 1 | 1.92 | 1.51 | 6858 | 7103 |
| CalpB (GeneID 39165) | 1 | 6.69 | 5.34 | 6393 | 6400 |
| CalpB (GeneID 39165) | 2 | 2.67 | 11.6 | 6738 | 5820 |
| CG4658 (GeneID 34325) | 1 | 4.07 | 4.1 | 6609 | 6533 |
| Jupiter (GeneID 41392) | 1 | 4.65 | 4.63 | 7189 | 6969 |
| Jupiter (GeneID 41392) | 2 | 22.8 | 27.6 | 4222 | 4517 |
| Jupiter (GeneID 41392) | 3 | 3.35 | 10.4 | 6352 | 5780 |
| CG7335 (GeneID 40203) | 1 | 2.09 | 4.87 | 6780 | 6443 |
| CG7335 (GeneID 40203) | 2 | 12.9 | 4.32 | 6284 | 6225 |
| Hr78 (GeneID 40378) | 1 | 6.1 | 7.43 | 6325 | 6484 |
| Hr78 (GeneID 40378) | 2 | 6.03 | 3.27 | 6765 | 7124 |
| fzo (GeneID 42745) | 1 | 2.84 | 13 | 6582 | 6147 |
| ms(2)34Fe (GeneID 34833) | 1 | – | 9.93 | 513 | 2700 |
| Cyp304a1 (GeneID 41586) | 1 | 3.23 | 10.8 | 6288 | 6320 |
| sced (GeneID 35564) | 1 | 16.8 | 8.83 | 6295 | 6555 |
| Glt (GeneID 34193) | 1 | 24.6 | 5.04 | 2809 | 1092 |
| Glt (GeneID 34193) | 2 | 21.1 | 8.95 | 3442 | 2995 |
| CG5376 (GeneID 42648) | 1 | – | 9.24 | 371 | 5519 |
| CG5376 (GeneID 42648) | 2 | 25.6 | 1.23 | 4849 | 891 |
